PubChem BioAssay AID1259414, Drosophila RNAi Screening Center | 2018
Assay: 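Fly genes that alter Wolbachia amount inside host cells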 (primary screen). Cell system: Drosophila JW18 cells infected with Wolbachia. Knock-down reagent: long dsRNA against Drosophila genes, 0.25 µg dsRNA per well of a 384-well plate. Duration: 5 days. Treatment: cells persistently infected with Wolbachia before knock-down; no added drug. Detection: 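Imaged fluorescence in situ signal for Wolbachia 23S rRNA per DAPI-counted host cell, given as a robust z-score within each plate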. Direction: Wolbachia per cell robust z: higher = more Wolbachia per host cell than the plate typical. Call rule: 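Hit when robust z is 1.5 or more, or -1.5 or less, in at least two of three replicates; excludes dsRNAs with several or no targets, genes not expressed in JW18 and well A1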.
The deposit covers about 24,000 reagents; shown is an unselected part of those that have a named target and a result. Of all reagents, about 1,210 (5%) got an active call. 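Inactive calls also include excluded dsRNAs with several or no targets, genes unexpressed in JW18, and well A1, regardless of score.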 Reagent sequences are not shown.

beat-Vc [DRSC12927] showed Wolbachia per cell robust z, rep 1 = -2.67; Wolbachia per cell robust z, rep 2 = -0.55; Wolbachia per cell robust z, rep 3 = 0.109; inactive. Depletion of beat-Vc [DRSC14849] resulted in: Wolbachia per cell robust z, rep 1 = 1.19; Wolbachia per cell robust z, rep 2 = 0.978; Wolbachia per cell robust z, rep 3 = -0.0904; inactive. Against CG8260 [DRSC20098], the values are Wolbachia per cell robust z, rep 1 = 0.157; Wolbachia per cell robust z, rep 2 = 0.626; Wolbachia per cell robust z, rep 3 = -4.49; inactive. Lkr [DRSC09754] gave Wolbachia per cell robust z, rep 1 = -2.17; Wolbachia per cell robust z, rep 2 = 0.122; Wolbachia per cell robust z, rep 3 = -0.034; inactive. CG31437 [DRSC13711] showed Wolbachia per cell robust z, rep 1 = 0.049; Wolbachia per cell robust z, rep 2 = -0.789; Wolbachia per cell robust z, rep 3 = 0.728; inactive. After knock-down of tyn [DRSC20652] the results were Wolbachia per cell robust z, rep 1 = -0.347; Wolbachia per cell robust z, rep 2 = 0.0364; Wolbachia per cell robust z, rep 3 = 0.518; inactive.

After knock-down of CG43896 [DRSC10288], the screen gave Wolbachia per cell robust z, rep 1 = 0.42; Wolbachia per cell robust z, rep 2 = 0.184; Wolbachia per cell robust z, rep 3 = 0.163; inactive. CG43896 [DRSC10754] showed Wolbachia per cell robust z, rep 1 = 0.772; Wolbachia per cell robust z, rep 2 = 1.06; Wolbachia per cell robust z, rep 3 = 0.0184; inactive. Against CG43896 [DRSC26965], the values are Wolbachia per cell robust z, rep 1 = 0.28; Wolbachia per cell robust z, rep 2 = 1.41; Wolbachia per cell robust z, rep 3 = 0.215; inactive. CG6766 [DRSC02991] scored Wolbachia per cell robust z, rep 1 = 0.163; Wolbachia per cell robust z, rep 2 = -0.117; Wolbachia per cell robust z, rep 3 = -1.07; inactive. Depletion of Ir51b [DRSC05540] came out at: Wolbachia per cell robust z, rep 1 = 0.405; Wolbachia per cell robust z, rep 2 = 2.74; Wolbachia per cell robust z, rep 3 = 1.05; inactive. After knock-down of Ugt302K1 [DRSC16086], the record shows Wolbachia per cell robust z, rep 1 = -5.35; Wolbachia per cell robust z, rep 2 = 1.22; Wolbachia per cell robust z, rep 3 = 0.873; inactive.

CG14658 [DRSC12244] gave Wolbachia per cell robust z, rep 1 = 1.18; Wolbachia per cell robust z, rep 2 = 0.145; Wolbachia per cell robust z, rep 3 = 0.48; inactive. For Arp2 [DRSC19332], the values are Wolbachia per cell robust z, rep 1 = 1.11; Wolbachia per cell robust z, rep 2 = -0.6; Wolbachia per cell robust z, rep 3 = 1.24; inactive. After knock-down of CG14113 [DRSC10116] the results were Wolbachia per cell robust z, rep 1 = 0.456; Wolbachia per cell robust z, rep 2 = 1.1; Wolbachia per cell robust z, rep 3 = 0.504; inactive. mthl5 [DRSC16155] showed Wolbachia per cell robust z, rep 1 = 0.817; Wolbachia per cell robust z, rep 2 = 1.46; Wolbachia per cell robust z, rep 3 = -0.557; inactive.

Already shown: entries from further up.
Ugt302K1 [DRSC16086] — Wolbachia per cell robust z, rep 1 = -5.35; Wolbachia per cell robust z, rep 2 = 1.22; Wolbachia per cell robust z, rep 3 = 0.873; activity call = inactive
CG14658 [DRSC12244] — Wolbachia per cell robust z, rep 1 = 1.18; Wolbachia per cell robust z, rep 2 = 0.145; Wolbachia per cell robust z, rep 3 = 0.48; activity call = inactive
